{"source": "PubChem BioAssay AID1259414 (Drosophila RNAi Screening Center, 2018)", "test": "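Fly genes that alter Wolbachia amount inside host cells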 (primary screen)", "cells": "Drosophila JW18 cells infected with Wolbachia", "reagent": "long dsRNA against Drosophila genes, 0.25 µg dsRNA per well of a 384-well plate", "duration": "5 days", "challenge": "cells persistently infected with Wolbachia before knock-down; no added drug", "detection": "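Imaged fluorescence in situ signal for Wolbachia 23S rRNA per DAPI-counted host cell, given as a robust z-score within each plate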", "reading the numbers": "Wolbachia per cell robust z: higher = more Wolbachia per host cell than the plate typical", "call rule": "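Hit when robust z is 1.5 or more, or -1.5 or less, in at least two of three replicates; excludes dsRNAs with several or no targets, genes not expressed in JW18 and well A1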", "note": "In all, the deposit lists about 24,000 reagents; this is an unselected part of those with a known target gene and a result. In the full data, about 1,210 (5%) were called active. 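Inactive calls also include excluded dsRNAs with several or no targets, genes unexpressed in JW18, and well A1, regardless of score.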 Unmarked entries are inactive. Reagents against one gene are numbered here."}
{"predicted target": "hog", "reagent no.": 1, "Wolbachia per cell robust z, rep 1": 0.456, "Wolbachia per cell robust z, rep 2": -0.462, "Wolbachia per cell robust z, rep 3": -0.128}
{"predicted target": "hog", "reagent no.": 2, "Wolbachia per cell robust z, rep 1": 0.907, "Wolbachia per cell robust z, rep 2": -0.937, "Wolbachia per cell robust z, rep 3": -0.537}
{"predicted target": "I-t (inhibitor-t)", "reagent no.": 1, "Wolbachia per cell robust z, rep 1": -0.363, "Wolbachia per cell robust z, rep 2": -4.96, "Wolbachia per cell robust z, rep 3": 1.42}
{"predicted target": "I-t (inhibitor-t)", "reagent no.": 2, "Wolbachia per cell robust z, rep 1": 0.474, "Wolbachia per cell robust z, rep 2": 0.251, "Wolbachia per cell robust z, rep 3": 0.539}
{"predicted target": "ATPsynG (ATP synthase, subunit G)", "reagent no.": 1, "Wolbachia per cell robust z, rep 1": -6.84, "Wolbachia per cell robust z, rep 2": -8.47, "Wolbachia per cell robust z, rep 3": 0.282}
{"predicted target": "CG13484", "reagent no.": 1, "Wolbachia per cell robust z, rep 1": -1.58, "Wolbachia per cell robust z, rep 2": 0.394, "Wolbachia per cell robust z, rep 3": -0.792}
{"predicted target": "CG13484", "reagent no.": 2, "Wolbachia per cell robust z, rep 1": 0.636, "Wolbachia per cell robust z, rep 2": -0.301, "Wolbachia per cell robust z, rep 3": -0.514}
{"predicted target": "Cpr97Eb (Cuticular protein 97Eb)", "reagent no.": 1, "Wolbachia per cell robust z, rep 1": 0.302, "Wolbachia per cell robust z, rep 2": -3.03, "Wolbachia per cell robust z, rep 3": -0.132}
{"predicted target": "AdipoR (Adiponectin receptor)", "reagent no.": 1, "Wolbachia per cell robust z, rep 1": -0.025, "Wolbachia per cell robust z, rep 2": -0.866, "Wolbachia per cell robust z, rep 3": 0.301}
{"predicted target": "Hipk (Homeodomain interacting protein kinase)", "reagent no.": 1, "Wolbachia per cell robust z, rep 1": -1.05, "Wolbachia per cell robust z, rep 2": -4.95, "Wolbachia per cell robust z, rep 3": 1.46}
{"predicted target": "Hipk (Homeodomain interacting protein kinase)", "reagent no.": 2, "Wolbachia per cell robust z, rep 1": -0.498, "Wolbachia per cell robust z, rep 2": -0.11, "Wolbachia per cell robust z, rep 3": -0.185}
{"predicted target": "CG9467", "reagent no.": 1, "Wolbachia per cell robust z, rep 1": -1.33, "Wolbachia per cell robust z, rep 2": 1.62, "Wolbachia per cell robust z, rep 3": 0.664}
{"predicted target": "lncRNA:CR33963 (long non-coding RNA:CR33963)", "reagent no.": 1, "Wolbachia per cell robust z, rep 1": -0.866, "Wolbachia per cell robust z, rep 2": 0.609, "Wolbachia per cell robust z, rep 3": -0.246}
{"predicted target": "CG14153", "reagent no.": 1, "Wolbachia per cell robust z, rep 1": 0.404, "Wolbachia per cell robust z, rep 2": 0.185, "Wolbachia per cell robust z, rep 3": 0.341}
{"predicted target": "CG14153", "reagent no.": 2, "Wolbachia per cell robust z, rep 1": 0.205, "Wolbachia per cell robust z, rep 2": -0.307, "Wolbachia per cell robust z, rep 3": -0.0941}
{"predicted target": "CG14341", "reagent no.": 1, "Wolbachia per cell robust z, rep 1": 0.667, "Wolbachia per cell robust z, rep 2": 0.174, "Wolbachia per cell robust z, rep 3": -5.87}
{"predicted target": "cer (crammer)", "reagent no.": 1, "Wolbachia per cell robust z, rep 1": -0.13, "Wolbachia per cell robust z, rep 2": 0.294, "Wolbachia per cell robust z, rep 3": 0.668}
{"predicted target": "CG11122", "reagent no.": 1, "Wolbachia per cell robust z, rep 1": -0.671, "Wolbachia per cell robust z, rep 2": 1.01, "Wolbachia per cell robust z, rep 3": -3.78}
{"predicted target": "CG11122", "reagent no.": 2, "Wolbachia per cell robust z, rep 1": 0.837, "Wolbachia per cell robust z, rep 2": 0.377, "Wolbachia per cell robust z, rep 3": 0.27}
{"predicted target": "Pi3K68D (Phosphatidylinositol 3-kinase 68D)", "reagent no.": 1, "Wolbachia per cell robust z, rep 1": -1.33, "Wolbachia per cell robust z, rep 2": -3.43, "Wolbachia per cell robust z, rep 3": -0.326}
{"predicted target": "Pi3K68D (Phosphatidylinositol 3-kinase 68D)", "reagent no.": 2, "Wolbachia per cell robust z, rep 1": -0.943, "Wolbachia per cell robust z, rep 2": -0.163, "Wolbachia per cell robust z, rep 3": -0.228}
{"predicted target": "CG32225", "reagent no.": 1, "Wolbachia per cell robust z, rep 1": -0.444, "Wolbachia per cell robust z, rep 2": 0.923, "Wolbachia per cell robust z, rep 3": 0.678}
{"predicted target": "CG32225", "reagent no.": 2, "Wolbachia per cell robust z, rep 1": -0.215, "Wolbachia per cell robust z, rep 2": -1.04, "Wolbachia per cell robust z, rep 3": -0.0422}
{"predicted target": "CG41099", "reagent no.": 1, "Wolbachia per cell robust z, rep 1": 1.18, "Wolbachia per cell robust z, rep 2": 2.39, "Wolbachia per cell robust z, rep 3": 0.204}
{"predicted target": "Gba1a (Glucocerebrosidase 1a)", "reagent no.": 1, "Wolbachia per cell robust z, rep 1": -1.47, "Wolbachia per cell robust z, rep 2": 0.646, "Wolbachia per cell robust z, rep 3": 0.242}
{"predicted target": "CG12699", "reagent no.": 1, "Wolbachia per cell robust z, rep 1": -0.242, "Wolbachia per cell robust z, rep 2": -0.163, "Wolbachia per cell robust z, rep 3": -0.836}
{"predicted target": "CG12699", "reagent no.": 2, "Wolbachia per cell robust z, rep 1": -0.0653, "Wolbachia per cell robust z, rep 2": -0.154, "Wolbachia per cell robust z, rep 3": 0.779}
{"predicted target": "CG18518", "reagent no.": 1, "Wolbachia per cell robust z, rep 1": 1.16, "Wolbachia per cell robust z, rep 2": 0.0618, "Wolbachia per cell robust z, rep 3": -1.06}
{"predicted target": "CG15657", "reagent no.": 1, "Wolbachia per cell robust z, rep 1": 0.674, "Wolbachia per cell robust z, rep 2": -5.06, "Wolbachia per cell robust z, rep 3": -0.513}
{"predicted target": "CG12115", "reagent no.": 1, "Wolbachia per cell robust z, rep 1": -0.58, "Wolbachia per cell robust z, rep 2": 0.458, "Wolbachia per cell robust z, rep 3": -0.574}

Only “Wolbachia per cell robust z, rep 3”, for 2 of the entries above:
CG11122 #1	-3.78
CG11122 #2	0.27
